Experimental findings from patent publication US20230234994A1, “Vasopressin-2 receptor antagonist peptides and uses thereof” (published 2023) are described below.

Assay [1] has as its target human vasopressin-2 receptor (human) (UniProt P30518).
The target is the same in assay [2]. The experiment in a line: Ki ratio to WT MQ1; 3H-AVP competition binding on V2R membranes.
Assay [3] shares this target. The experiment in a line: cell-based or functional assay.

“N15A+K39A+I48L peptide (peptide; modification not given)”: the Ki in assay [1] was determined as 2.05 nM. In addition, the ratio in assay [2] stood at 0.41.

“K39A+I48L peptide (peptide; modification not given)” returned a Ki in assay [1] of 0.93 nM. The ratio in assay [2] came to 0.19.

Consider “K39A peptide (peptide; modification not given)”, for which the Ki in assay [1] is 0.57 nM. This substance came in with an Inhibition of cAMP production, IC50 in assay [3] of 46.1 nM. Besides, the ratio in assay [2] is 0.115.

Take “F4G+K39A+T27D peptide (peptide; modification not given)”: the Ki in assay [1] stood at 0.74 nM. The ratio in assay [2] was 0.15.

As for “MQ-LEAD (F4G + K39A + T27D + I48E) (peptide; modification not given)”, the Ki in assay [1] is 0.66 nM. For the same substance, the Inhibition of cAMP production, IC50 in assay [3] was determined as 9.27 nM. Further, in assay [2], the ratio came out at 0.13.

For orientation: Ki means the dissociation constant of the complex between target and ligand, obtained from inhibition or displacement.
